Fold change is the IC50 on the isolate divided by the IC50 on a reference virus; 1 = unchanged, higher = more resistant. Changes are given against the subtype B consensus. No active / inactive call. The values were gathered from many studies (numbered anew) with different assays, which the source does not name. Most viruses are clinical isolates; some are laboratory strains or clones with known resistance changes. Isolates with mixed residues are left out; stretches that were not sequenced show no change. Round top values that many isolates share are read here as limits; other very high values and 0.1 may be limits too. The protease changes I3V and N37S, insertions and deletions cannot be read from the source.
Columns and labels:
Assay in all cases: fold change of IC50 against reference virus; higher = more resistant; Cell-culture drug susceptibility tests of virus bearing the protease of each isolate, gathered from many studies.
[1] = compound: CC(C)(C)NC(=O)[C@@H]1CN(Cc2cccnc2)CCN1C[C@@H](O)C[C@@H](Cc1ccccc1)C(=O)N[C@H]1c2ccccc2C[C@H]1O [indinavir]
[2] = compound: CC(C)(C)NC(=O)[C@@H]1C[C@@H]2CCCC[C@@H]2CN1C[C@@H](O)[C@H](Cc1ccccc1)NC(=O)[C@H](CC(N)=O)NC(=O)c1ccc2ccccc2n1 [saquinavir]
[3] = compound: CC(C)c1nc(CN(C)C(=O)N[C@H](C(=O)N[C@@H](Cc2ccccc2)C[C@H](O)[C@H](Cc2ccccc2)NC(=O)OCc2cncs2)C(C)C)cs1 [ritonavir]
[4] = compound: CCC[C@@]1(CCc2ccccc2)CC(O)=C([C@H](CC)c2cccc(NS(=O)(=O)c3ccc(C(F)(F)F)cn3)c2)C(=O)O1 [tipranavir]
[5] = compound: COC(=O)N[C@H](C(=O)N[C@@H](Cc1ccccc1)[C@@H](O)CN(Cc1ccc(-c2ccccn2)cc1)NC(=O)[C@@H](NC(=O)OC)C(C)(C)C)C(C)(C)C [atazanavir]
[6] = compound: Cc1c(O)cccc1C(=O)N[C@@H](CSc1ccccc1)[C@H](O)CN1C[C@H]2CCCC[C@H]2C[C@H]1C(=O)NC(C)(C)C [nelfinavir]
[7] = compound: Cc1cccc(C)c1OCC(=O)N[C@@H](Cc1ccccc1)[C@@H](O)C[C@H](Cc1ccccc1)NC(=O)[C@H](C(C)C)N1CCCNC1=O [lopinavir]

| Test System | fold change of IC50 against reference virus [1] | fold change of IC50 against reference virus [2] | fold change of IC50 against reference virus [3] | fold change of IC50 against reference virus [4] | fold change of IC50 against reference virus [5] | fold change of IC50 against reference virus [6] | fold change of IC50 against reference virus [7] |
| --- | --- | --- | --- | --- | --- | --- | --- |
| HIV-1 isolate 752 (protease changes: L10I I13V K20R E35D M36I I62V L63P I64L T74S L90M, study 64) | 1.5 | 2.8 | 5.7 | 1 | 2 | 6 | 0.7 |
| HIV-1 isolate 1423 (protease changes: L10I I15V L19I K20R M36I R41K M46L I54V L63P A71V L76V V82A L90M I93L, study 64) | 22 | 3.8 | 43 | 0.9 | 0.7 | 6.8 | 33 |
| HIV-1 isolate 858 (protease changes: L10F M46I R57K I62V L63P A71T I84V L90M I93L, study 64) | 9.5 | 12 | 11 | 1.1 | 11 | 6.9 | 12 |
| HIV-1 isolate 485 (protease changes: L10I I15V L63T I93L, study 64) | 1.4 | 1.4 | 1.3 | 1.4 | 1.3 | 1.7 | 0.9 |
| HIV-1 isolate 983 (protease changes: L10I E35D M36I R41K I62V L63P A71V T74P L90M I93L, study 64) | 4.8 | 6 | 8.3 | 1.9 | 6.4 | 15 | 2.5 |
| HIV-1 isolate 408 (protease changes: L63T V77I, study 64) | 0.4 | 0.6 | 0.5 | 0.6 | 0.8 | 0.7 | 0.6 |
| HIV-1 isolate 1574 (protease changes: M36I I62V L63P I93L, study 64) | 1.4 | 0.9 | 1.2 | 0.9 | 1.3 | 1.7 | 1.3 |
| HIV-1 isolate 1259 (protease changes: L10F I13V G16A L19V L33F E34Q K43I M46L G51A I54M L63P I64M A71V I72M G73A I84V L90M, study 64) | 22 | 66 | ≥ 800 | 12 | 90 | 52 | 70 |
| HIV-1 isolate 1300 (protease changes: I3L L10I R41K R57K L63Q I64V I72V V77I, study 64) | 1 | 0.6 | 0.9 | 0.8 | 0.9 | 1.1 | 0.8 |
| HIV-1 isolate 334 (protease changes: I62V L63S, study 15) | 0.8 | 0.8 | 0.7 | 0.8 | 1 | 1.1 | 0.9 |
| HIV-1 isolate 490 (protease changes: L10I V11I T12P I13V K14R L19V L33F M46L G48M I54M L63T A71V I72T T74A P79S V82A I84V I93L, study 64) | 7.7 | 64 | 47 | 3.1 | 18 | 8 | 38 |
| HIV-1 isolate 635 (protease changes: L10I I13V K20T D60E L63P C67D A71V V77I L90M I93L, study 64) | 4.8 | 3.7 | 4.2 | 0.6 | 3.4 | 9.3 | 1.6 |
| HIV-1 isolate 984 (protease changes: L10I M46L I62V L63P I85V L90M I93L, study 64) | 3.4 | 3.2 | 7.1 | 0.4 | 2.9 | 4.9 | 2.8 |
| HIV-1 isolate 1161 (protease changes: I13V P39Q I62V L63P V77I, study 64) | 0.6 | 0.5 | 0.5 | 0.8 | 0.6 | 1 | 0.5 |
| HIV-1 isolate 17 (protease changes: I15V R41K L63A I64V K70R, study 64) | 0.7 | 0.8 | 0.8 | 1.2 | 0.7 | 1 | 0.7 |
| HIV-1 isolate 1165 (protease changes: L19I R57K L63S I64V E65D, study 64) | 1.3 | 0.8 | 1.2 | 1.1 | 0.9 | 1.6 | 1.2 |
| HIV-1 isolate 1399 (protease changes: I13V D30N K43T M46I D60E Q61E L63P V77I I93L, study 64) | 1.4 | 0.6 | 0.6 | 0.4 | 1.5 | 19 | 0.7 |
| HIV-1 isolate 1309 (protease changes: L10I I13V L33F E35D K43T I54L L63P I64L V77I L90M, study 64) | 1.4 | 3.9 | 10 | 1.5 | 3.2 | 4.4 | 2.1 |
| HIV-1 isolate 291 (protease changes: K14R I15V R41K L63P, study 64) | 0.7 | 0.9 | 0.7 | 1.2 | 0.8 | 1 | 0.8 |

| Test System | fold change of IC50 against reference virus [1] | fold change of IC50 against reference virus [2] | fold change of IC50 against reference virus [3] | fold change of IC50 against reference virus [4] | fold change of IC50 against reference virus [5] | fold change of IC50 against reference virus [6] | fold change of IC50 against reference virus [7] |
| --- | --- | --- | --- | --- | --- | --- | --- |
| HIV-1 isolate 508 (protease changes: I13V K14R E35D M36I R41K R57K H69K L89M, study 18) | 1.1 | 1.4 | 1.9 | 2.2 | 1.3 | 1.3 | 0.7 |
| HIV-1 isolate 82 (protease changes: L10I I15V I54L I62V L63P I93L, study 64) | 1.8 | 1.6 | 5 | 1.7 | 1.7 | 2.5 | 4.6 |
| HIV-1 isolate 475 (protease changes: K14R L33V R41K I64V, study 64) | 1.7 | 1.2 | 2.1 | 2.4 | 1.7 | 1.6 | 1.1 |
| HIV-1 isolate 758 (protease changes: L10I V11I I15V A22V L24I E34D M36I I54V I62V L63P A71V V82A I84V T91S, study 64) | 29 | 51 | 99 | 3 | 31 | 25 | 45 |
| HIV-1 isolate 466 (protease changes: L10I T12I N37D M46L G48V R57K L63Q I64V A71V I72T V82A I84V, study 64) | 18 | 120 | 44 | 0.9 | 22 | 7.2 | 5.4 |
| HIV-1 isolate 710 (protease changes: M46L K55R L63P H69Y A71T I84V L90M, study 64) | 3.6 | 8.1 | 17 | 1.2 | 3.7 | 8.6 | 3.1 |
| HIV-1 isolate 930 (protease changes: Q58E L63P K70R, study 15) | 0.6 | 0.7 | 0.6 | 0.8 | 0.7 | 0.7 | 0.7 |
| HIV-1 isolate 1331 (protease changes: I13V K14R, study 64) | 0.5 | 0.4 | 0.4 | 0.5 | 0.5 | 0.4 | 0.4 |
| HIV-1 isolate 50 (protease changes: I13V R41K D60E L63P, study 64) | 1 | 1.3 | 1.2 | 1.6 | 1.1 | 1.3 | 1 |
| HIV-1 isolate 844 (protease changes: I15V K20R E35D M36I N37D F53L L63P H69K A71T I72V V77I V82A, study 15) | 1.8 | 0.8 | 18 | 0.7 | 1.9 | 1.6 | 2.2 |
| HIV-1 isolate 1608 (protease changes: I15V M36I I72V, study 64) | 0.8 | 1 | 1.5 | 1.2 | 1 | 1.3 | 1.1 |
| HIV-1 isolate 1256 (protease changes: R57K L63A V77I, study 64) | 1 | 0.8 | 0.7 | 0.8 | 0.8 | 1.2 | 0.8 |
| HIV-1 isolate 702 (protease changes: L10I I13V K14R G16E K20I E35D M36I N37D R41N I54V L63H H69K K70R T74S L76V V82A L89I T91S, study 64) | 15 | 1.1 | 22 | 0.5 | 0.8 | 4.2 | 91 |
| HIV-1 isolate 615 (protease changes: L10I N37D M46I L63P A71T I72V V77I I84V I85V L89I L90M Q92R I93L, study 64) | 28 | 21 | 28 | 1.9 | 7.4 | 45 | 15 |
| HIV-1 isolate 1354 (protease changes: L10R V32I N37H R41K M46I I47V I50L L63P A71I I72V V77I V82T L90M I93L, study 64) | 13 | 1.3 | 12 | 4.5 | 161 | 8.3 | 8 |
| HIV-1 isolate 852 (protease changes: V77I I93L, study 64) | 1.1 | 0.8 | 0.8 | 0.7 | 0.8 | 1.4 | 0.7 |
| HIV-1 isolate 458 (protease changes: I15V M36I L63C, study 64) | 0.6 | 0.7 | 0.5 | 0.8 | 0.6 | 0.6 | 0.5 |
| HIV-1 isolate 683 (protease changes: R41K L63P V77I, study 64) | 0.6 | 0.7 | 0.8 | 0.9 | 0.7 | 1.2 | 0.6 |
| HIV-1 isolate 1431 (protease changes: L10F I13V L33I M36I R41K M46L I54L L63P I64V N88D, study 64) | 2.9 | 2.4 | 5.5 | 0.8 | 3 | 3.6 | 5 |
